In patent publication US8518677B2, “Microbial bioreaction process” (Evolva Sa, priority 2007, dated 2013):

Experiment: Stilbenoid levels in batch culture of solvent-adapted PALCPR, dodecane/octylacetate two-phase vs control (HPLC)
Design: species or system S. cerevisiae
Settings: for Supernatant, no ethanol / Supernatant, ethanol: PALCPR-control, no solvent; for Supernatant, ethanol: broth mixed with equal volume of 100% ethanol; for Upper phase (0.3 L) concentration / Lower phase (1 L) concentration / Total produced in 1 L: PALCPR-solvent; for Upper phase (0.3 L) concentration: 200 ml dodecane + 100 ml octylacetate on 1 L medium, at galactose depletion; for Lower phase (1 L) concentration: aqueous medium phase, dodecane/octylacetate; for Total produced in 1 L: upper x 0.3 + lower
Experimental: A Phenomenex (Torrance, Calif., USA) Luna 3 micrometer C18 (100×2.00 mm) column was used at 60° C. As mobile phase a gradient of acetonitrile and milliq water (both containing 50 ppm trifluoroacetic acid) was used at a flow of 0.4 ml/min. The gradient profile was linear from 15% acetonitrile to 100% acetonitrile over 20 min.

SMILES | Supernatant, no ethanol [mg/L] | Supernatant, ethanol [mg/L] | Upper phase (0.3 L) concentration [mg/L] | Lower phase (1 L) concentration [mg/L] | Total produced in 1 L [mg/L]
Oc1cc(O)cc(/C=C/c2ccccc2)c1 [Pinosylvin, pinosylvin] | 1.74 | 22.63 | 55.84 | 0.85 | 17.6
O=C(O)C=Cc1ccccc1 [Cinnamic acid, cinnamic acid] | 3.59 | 9.70 | 20.72 | 4.72 | 10.93
